{"source": "PubChem BioAssay AID1259414 (Drosophila RNAi Screening Center, 2018)", "test": "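Genome-wide screen for host control of endosymbiont load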 (primary screen)", "cells": "Drosophila JW18 cells infected with Wolbachia", "knock-down reagent": "long dsRNA against Drosophila genes, 0.25 µg dsRNA per well of a 384-well plate", "duration": "5 days", "conditions": "cells persistently infected with Wolbachia before knock-down; no added drug", "measured": "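Automated imaging of bacterial rRNA staining divided by host cell count, reported as plate-normalised robust z-score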", "scale": "Wolbachia per cell robust z: higher = more Wolbachia per host cell than the plate typical", "hit rule": "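Active if absolute robust z reaches 1.5 in two or more of three replicates, leaving out multi- or no-target dsRNAs, genes unexpressed in JW18 and A1 wells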", "note": "The screen tested about 24,000 reagents; shown is an unselected part of those with a known target gene and a result. Of all reagents, about 1,210 (5%) are marked active. 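Inactive calls also include excluded dsRNAs with several or no targets, genes unexpressed in JW18, and well A1, regardless of score.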 The numbers tell different reagents against one gene apart. A plus sign joins genes that one reagent is predicted to hit."}
{"gene knocked down": "Targ3 + park", "reagent no.": 1, "Wolbachia per cell robust z, rep 1": -1.62, "Wolbachia per cell robust z, rep 2": -0.818, "Wolbachia per cell robust z, rep 3": 0.604, "Call": "inactive"}
{"gene knocked down": "AdipoR (GeneID 42656)", "reagent no.": 1, "Wolbachia per cell robust z, rep 1": -0.025, "Wolbachia per cell robust z, rep 2": -0.866, "Wolbachia per cell robust z, rep 3": 0.301, "Call": "inactive"}
{"gene knocked down": "mRpL10 (GeneID 33182)", "reagent no.": 1, "Wolbachia per cell robust z, rep 1": -0.0228, "Wolbachia per cell robust z, rep 2": 0.286, "Wolbachia per cell robust z, rep 3": -1.21, "Call": "inactive"}
{"gene knocked down": "Hn (GeneID 38871)", "reagent no.": 1, "Wolbachia per cell robust z, rep 1": -8.08, "Wolbachia per cell robust z, rep 2": -0.266, "Wolbachia per cell robust z, rep 3": -0.678, "Call": "inactive"}
{"gene knocked down": "pigs (GeneID 31596)", "reagent no.": 1, "Wolbachia per cell robust z, rep 1": -0.0751, "Wolbachia per cell robust z, rep 2": 0.546, "Wolbachia per cell robust z, rep 3": -0.626, "Call": "inactive"}
{"gene knocked down": "pigs (GeneID 31596)", "reagent no.": 2, "Wolbachia per cell robust z, rep 1": -0.245, "Wolbachia per cell robust z, rep 2": 0.427, "Wolbachia per cell robust z, rep 3": -0.326, "Call": "inactive"}
{"gene knocked down": "pigs (GeneID 31596)", "reagent no.": 3, "Wolbachia per cell robust z, rep 1": -0.6, "Wolbachia per cell robust z, rep 2": 0.651, "Wolbachia per cell robust z, rep 3": 0.35, "Call": "inactive"}
{"gene knocked down": "CAH3 (GeneID 31804)", "reagent no.": 1, "Wolbachia per cell robust z, rep 1": -0.842, "Wolbachia per cell robust z, rep 2": -1.19, "Wolbachia per cell robust z, rep 3": -0.046, "Call": "inactive"}
{"gene knocked down": "CG13947 (GeneID 33250)", "reagent no.": 1, "Wolbachia per cell robust z, rep 1": -0.615, "Wolbachia per cell robust z, rep 2": 0.467, "Wolbachia per cell robust z, rep 3": -2.18, "Call": "inactive"}
{"gene knocked down": "CG13947 (GeneID 33250)", "reagent no.": 2, "Wolbachia per cell robust z, rep 1": -0.0361, "Wolbachia per cell robust z, rep 2": -0.309, "Wolbachia per cell robust z, rep 3": -0.678, "Call": "inactive"}
{"gene knocked down": "CG10993 (GeneID 32344)", "reagent no.": 1, "Wolbachia per cell robust z, rep 1": -0.96, "Wolbachia per cell robust z, rep 2": 0.732, "Wolbachia per cell robust z, rep 3": 1.39, "Call": "inactive"}
{"gene knocked down": "Vha100-3 (GeneID 246543)", "reagent no.": 1, "Wolbachia per cell robust z, rep 1": -0.1, "Wolbachia per cell robust z, rep 2": 0.00115, "Wolbachia per cell robust z, rep 3": 0.533, "Call": "inactive"}
{"gene knocked down": "RhoGEF4 (GeneID 38806)", "reagent no.": 1, "Wolbachia per cell robust z, rep 1": 0.469, "Wolbachia per cell robust z, rep 2": -0.215, "Wolbachia per cell robust z, rep 3": -1.14, "Call": "inactive"}
{"gene knocked down": "RhoGEF4 (GeneID 38806)", "reagent no.": 2, "Wolbachia per cell robust z, rep 1": -0.0553, "Wolbachia per cell robust z, rep 2": 0.347, "Wolbachia per cell robust z, rep 3": 0.0116, "Call": "inactive"}
{"gene knocked down": "Trs20 (GeneID 39769)", "reagent no.": 1, "Wolbachia per cell robust z, rep 1": -0.0255, "Wolbachia per cell robust z, rep 2": -5.73, "Wolbachia per cell robust z, rep 3": -0.537, "Call": "inactive"}
{"gene knocked down": "CG10581 (GeneID 40326)", "reagent no.": 1, "Wolbachia per cell robust z, rep 1": -0.149, "Wolbachia per cell robust z, rep 2": -1.97, "Wolbachia per cell robust z, rep 3": 1.25, "Call": "inactive"}
{"gene knocked down": "CG7458 (GeneID 40441)", "reagent no.": 1, "Wolbachia per cell robust z, rep 1": 0.595, "Wolbachia per cell robust z, rep 2": 0.852, "Wolbachia per cell robust z, rep 3": 0.541, "Call": "inactive"}
{"gene knocked down": "CG7458 (GeneID 40441)", "reagent no.": 2, "Wolbachia per cell robust z, rep 1": -1.53, "Wolbachia per cell robust z, rep 2": -1.31, "Wolbachia per cell robust z, rep 3": 0.443, "Call": "inactive"}
{"gene knocked down": "CG14247 (GeneID 43221)", "reagent no.": 1, "Wolbachia per cell robust z, rep 1": -3.16, "Wolbachia per cell robust z, rep 2": -1.21, "Wolbachia per cell robust z, rep 3": 0.126, "Call": "inactive"}
{"gene knocked down": "CG14247 (GeneID 43221)", "reagent no.": 2, "Wolbachia per cell robust z, rep 1": -0.555, "Wolbachia per cell robust z, rep 2": -0.105, "Wolbachia per cell robust z, rep 3": 0.805, "Call": "inactive"}
{"gene knocked down": "CG13067 (GeneID 39785)", "reagent no.": 1, "Wolbachia per cell robust z, rep 1": -1.26, "Wolbachia per cell robust z, rep 2": 0.287, "Wolbachia per cell robust z, rep 3": -9.8, "Call": "inactive"}
{"gene knocked down": "CG13067 (GeneID 39785)", "reagent no.": 2, "Wolbachia per cell robust z, rep 1": -0.215, "Wolbachia per cell robust z, rep 2": -0.789, "Wolbachia per cell robust z, rep 3": -0.512, "Call": "inactive"}
{"gene knocked down": "Gr66a (GeneID 38935)", "reagent no.": 1, "Wolbachia per cell robust z, rep 1": 0.128, "Wolbachia per cell robust z, rep 2": 0.105, "Wolbachia per cell robust z, rep 3": -0.611, "Call": "inactive"}
{"gene knocked down": "CG42789 (GeneID 10178793)", "reagent no.": 1, "Wolbachia per cell robust z, rep 1": 0.356, "Wolbachia per cell robust z, rep 2": -0.0634, "Wolbachia per cell robust z, rep 3": 1.04, "Call": "inactive"}
